Anti-infective test results gathered from many reports (values: NIAID ChemDB through PubChem).

All rows: target-level tests; organism: HIV-1; target: Protease

Rows are shuffled and stem from different studies.

compound | measure | method | conditions | mutations | value
Cc1cc(-c2cc(O)c(Sc3ccccc3C(C)C)c(=O)o2)ccc1OCc1cccnc1 | IC50 | HPLC | pH 4.7 | - | 0.087 µM
C/C(CCC(C)(C)CN(C[C@@H](O)[C@H](Cc1ccccc1)NC(=O)O[C@H]1CO[C@H]2OCC[C@H]21)S(=O)(=O)c1cccc2c1OCO2)=N/O | Ki | fluorescence | - | - | <0.001 µM
O=C(COc1ccccc1)N[C@@H](Cc1ccccc1)C[C@H](O)[C@H](Cc1ccccc1)NC(=O)O[C@H]1CO[C@H]2OCC[C@H]21 | IC50 | - | - | - | <0.0005 µM
COc1ccc(C[C@H](C[C@H](O)[C@H](Cc2ccccc2)NC(=O)OC(C)(C)C)C(=O)N[C@H](C(=O)N[C@@H](Cc2ccccc2)C(=O)N2CCOCC2)C(C)C)c(OC)c1OC | IC50 | fluorescence | - | - | 0.016 µM
CC(C)(C)NC(=O)[C@@H]1CC(O)CN1C(=O)[C@@H](O)[C@H](Cc1ccccc1)NC(=O)[C@H](CS(C)(=O)=O)NC(=O)COc1cccc2ccccc12 | IC50 | - | - | - | <0.05 µM
COCCNC(=O)[C@@H](NC(=O)[C@H](Cc1ccc(OC)c(OC)c1OC)C[C@H](O)[C@H](Cc1ccccc1)NC(=O)OC(C)(C)C)C(C)C | IC50 | fluorescence | - | - | <0.0005 µM
CC(C)Oc1cccc(OCC(=O)N[C@@H](CS(C)(=O)=O)C(=O)N[C@@H](Cc2ccccc2)[C@H](O)C(=O)N2CSC(C)(C)[C@H]2C(=O)NC(C)(C)C)c1 | IC50 | - | - | - | <0.05 µM
CCOCCNC(=O)[C@@H](NC(=O)[C@H](Cc1ccc(OC)c(OC)c1OC)C[C@H](O)[C@H](Cc1ccccc1)NC(=O)OC(C)(C)C)C(C)C | IC50 | fluorescence | - | - | 0.008 µM
CC(C)C[C@H](NC(=O)[C@@H](NC(=O)CCCCCCCCCCCCCCC(=O)N[C@@H](Cc1ccc(N)cc1)C(=O)N[C@@H](Cc1ccccc1)C(=O)O)C(C)O)C(=O)N[C@@H](Cc1ccccc1)C(N)=O | IC50 | - | - | - | 0.64 µM
CC(C)OC(=O)NCCCC(C)(C)CN(C[C@@H](O)[C@H](Cc1ccccc1)NC(=O)O[C@H]1CO[C@H]2OCC[C@H]21)S(=O)(=O)c1ccc(N)cc1 | Ki | fluorescence | - | - | <0.001 µM
CCC(Cc1cccc(NS(=O)(=O)c2ccccn2)c1)c1cc(O)c(C(c2ccccc2)C2CC2)c(=O)o1 | IC50 | fluorescence | - | - | 0.66 µM
CC(=O)Nc1ccc(S(=O)(=O)N(Cc2ccccc2)C[C@@H](O)[C@H](CCc2ccccc2)NC(=O)Cc2c[nH]c3ccccc23)cc1 | IC50 | - | - | - | 0.014 µM
CC(C)(CCCCOC(=O)Oc1ccc([N+](=O)[O-])cc1)CN(C[C@@H](O)[C@H](Cc1ccccc1)NC(=O)O[C@H]1CO[C@H]2OCC[C@H]21)S(=O)(=O)c1ccc2c(c1)OCO2 | Ki | fluorescence | - | - | <0.001 µM
CC(C)C[C@H](NC(=O)[C@@H](NC(=O)CCCCCCCCCCCCCCC(=O)N[C@@H](CCCCN)C(=O)N[C@@H](Cc1ccccc1)C(=O)O)C(C)O)C(=O)N[C@@H](Cc1ccccc1)C(N)=O | IC50 | - | - | - | >5.5 µM
COCCCNC(=O)[C@@H](NC(=O)[C@H](Cc1ccc(OC)c(OC)c1OC)C[C@H](O)[C@H](Cc1ccccc1)NC(=O)OC(C)(C)C)C(C)C | IC50 | fluorescence | - | - | 0.008 µM
COC(=O)NCC(=O)NCCC(C)(C)CN(C[C@@H](O)[C@H](Cc1ccccc1)NC(=O)O[C@H]1CO[C@H]2OCC[C@H]21)S(=O)(=O)c1ccc2c(c1)OCO2 | Ki | fluorescence | - | - | <0.001 µM
CS(=O)(=O)C[C@H](NC(=O)COc1cccc2ccccc12)C(=O)N[C@@H](Cc1ccccc1)[C@H](O)C(=O)N1CCC[C@H]1C(=O)Nc1ccc(O)cc1 | IC50 | - | - | - | <5 µM
CCCCNC(=O)OCCCC(C)(C)CN(C[C@@H](O)[C@H](Cc1ccccc1)NC(=O)O[C@H]1CO[C@H]2OCC[C@H]21)S(=O)(=O)c1ccc2c(c1)OCO2 | Ki | fluorescence | - | - | <0.001 µM
CCCCCN(C[C@@H](O)[C@H](CCc1ccccc1)NC(=O)[C@H](C)NC(C)=O)S(=O)(=O)c1ccc2ncsc2c1 | Ki | - | - | - | 0.000002 µM
CN(C)C(=O)NCCCC(C)(C)CN(C[C@@H](O)[C@H](Cc1ccccc1)NC(=O)O[C@H]1CO[C@H]2OCC[C@H]21)S(=O)(=O)c1cccc2c1OCO2 | Ki | fluorescence | - | - | <0.001 µM
CCC(Cc1cccc(NS(=O)(=O)c2ccc(OC)cc2)c1)c1cc(O)c(C(c2ccccc2)C2CC2)c(=O)o1 | IC50 | fluorescence | - | - | 2.9 µM
CC(C)(CCCCN)CN(C[C@@H](O)[C@H](Cc1ccccc1)NC(=O)OC1COCOC1)S(=O)(=O)c1ccc(N)cc1 | Ki | fluorescence | - | - | <0.001 µM
COCCNC(=O)[C@@H](NC(=O)[C@H](Cc1ccc(OC)c(OC)c1)C[C@H](O)[C@H](Cc1ccccc1)NC(=O)OC(C)(C)C)C(C)C | IC50 | fluorescence | - | - | <0.0005 µM
COC(=O)NCCC(C)(C)CN(C[C@@H](O)[C@H](Cc1ccccc1)NC(=O)O[C@H]1CO[C@H]2OCC[C@H]21)S(=O)(=O)c1ccc2c(c1)OCO2 | Ki | fluorescence | - | - | <0.001 µM
COC(C)[C@H](NC(=O)COc1cccc2ccccc12)C(=O)N[C@@H](Cc1ccccc1)[C@H](O)C(=O)N1CSC[C@H]1C(=O)NC(C)(C)C | IC50 | - | - | - | <0.05 µM
CC(C)(C)CC(=O)NCCCCC(C)(C)CN(C[C@@H](O)[C@H](Cc1ccccc1)NC(=O)O[C@H]1CO[C@H]2OCC[C@H]21)S(=O)(=O)c1ccc2c(c1)OCO2 | Ki | fluorescence | - | - | <0.001 µM
CC(C)C[C@H](NC(=O)[C@@H](NC(=O)CCCCCCCCCCCCCCC(=O)N[C@@H](CC(N)=O)C(=O)N[C@@H](Cc1ccccc1)C(=O)O)C(C)O)C(=O)N[C@@H](Cc1ccc(-c2ccccc2)cc1)C(N)=O | IC50 | - | - | PR-L10I K45R I54V L63P A71V V82T L90M I93L | ~1.1 µM
CC(=O)NCCCC(C)(C)CN(C[C@@H](O)[C@H](Cc1ccccc1)NC(=O)O[C@H]1CO[C@H]2OCC[C@H]21)S(=O)(=O)c1ccc2c(c1)OCO2 | Ki | fluorescence | - | - | <0.001 µM
Cc1cc(F)cc(C)c1OCC(=O)N[C@@H](Cc1ccccc1)C[C@H](O)[C@H](Cc1ccccc1)NC(=O)O[C@H]1CO[C@H]2OCC[C@H]21 | IC50 | - | - | - | <0.0005 µM
CC(C)(CCCNS(C)(=O)=O)CN(C[C@@H](O)[C@H](Cc1ccccc1)NC(=O)O[C@H]1CO[C@H]2OCC[C@H]21)S(=O)(=O)c1ccc(N)cc1 | Ki | fluorescence | - | - | <0.001 µM
CCC(Cc1cccc(NS(=O)(=O)c2ccccc2)c1)c1cc(O)c(C(c2ccccc2)C2CC2)c(=O)o1 | IC50 | fluorescence | - | - | 4.3 µM
CC(C)C[C@H](NC(=O)[C@@H](NC(=O)CCCCCCCCCCCCCCC(=O)N[C@@H](CC(N)=O)C(=O)N[C@@H](Cc1ccc(-c2ccccc2)cc1)C(=O)O)C(C)O)C(=O)N[C@@H](Cc1ccccc1)C(N)=O | IC50 | - | - | - | 1.2 µM
CC(C)(CCCCNC(=O)NC(C)(C)C)CN(C[C@@H](O)[C@H](Cc1ccccc1)NC(=O)O[C@H]1CO[C@H]2OCC[C@H]21)S(=O)(=O)c1ccc2c(c1)OCO2 | Ki | fluorescence | - | - | <0.001 µM
COCCNC(=O)[C@@H](NC(=O)[C@H](Cc1ccc(OC)cc1OC)C[C@H](O)[C@H](Cc1ccccc1)NC(=O)OC(C)(C)C)C(C)C | IC50 | fluorescence | - | - | 0.013 µM
CC(C)(C)NOC[C@@H]1CN(Cc2cccnc2)CCN1CS(=N)(=O)C[C@@H](CCc1ccccc1)C(=O)N[C@H]1c2ccccc2C[C@H]1O | IC50 | - | - | - | 100 µM
CC(C)c1ccc(C(C)C)c(Sc2c(O)cc(-c3ccc(OCc4cccnc4)cc3)oc2=O)c1 | IC50 | HPLC | pH 4.7 | - | 0.32 µM
CC(C)CN(C[C@@H](O)[C@H](CCc1ccccc1)NC(=O)[C@@H]1CN(c2cccc(C(F)(F)F)c2)C(=O)O1)S(=O)(=O)c1ccc2c(c1)OCO2 | Ki | - | - | - | 0.000016 µM
CC(C)c1ccccc1Sc1c(O)cc(-c2ccc(OCc3ccncc3)cc2)oc1=O | IC50 | HPLC | pH 4.7 | - | 0.12 µM
COc1cccc(S(=O)(=O)N(Cc2cccs2)C[C@@H](O)[C@H](CCc2ccccc2)NC(=O)c2ccc(O)c(O)c2)c1 | Ki | - | - | - | 0.05 µM
Cc1cccc(C)c1OCC(=O)N[C@@H](Cc1ccccc1)[C@@H](O)C[C@H](Cc1ccccc1)NC(=O)O[C@H]1CO[C@H]2OCC[C@H]21 | IC50 | - | - | - | <0.0005 µM
CNc1cccc(S(=O)(=O)N(C[C@@H](O)[C@H](Cc2ccccc2)NC(=O)O[C@H]2CO[C@H]3OCC[C@H]32)CC(C)(C)CCC2(C)OCCO2)c1 | Ki | fluorescence | - | - | <0.001 µM
CCC(Cc1ccccc1)c1cc(O)c(C(c2ccccc2)C2CC2)c(=O)o1 | IC50 | fluorescence | - | - | 0.35 µM
CC[C@@H](C)[C@H](NC(=O)CN(CC1CCCCC1)C(=O)[C@H](O)[C@H](Cc1ccccc1)NC(=O)[C@H](CC(N)=O)NC(=O)OC(C)(C)C)C(=O)NCC1CCCCC1 | IC50 | - | - | - | >1000 µM
CC(C)(CCOC(=O)N1CCOCC1)CN(C[C@@H](O)[C@H](Cc1ccccc1)NC(=O)O[C@H]1CO[C@H]2OCC[C@H]21)S(=O)(=O)c1ccc2c(c1)OCO2 | Ki | fluorescence | - | - | <0.001 µM
CC(C)c1ccccc1Sc1c(O)cc(-c2cccc(OCc3ccccn3)c2)oc1=O | IC50 | HPLC | pH 4.7 | - | 0.067 µM
Cc1cc(N)cc(C)c1OCC(=O)N[C@@H](Cc1ccccc1)C[C@H](O)[C@H](Cc1ccccc1)NC(=O)OC1CO[C@H]2OCC[C@@H]12 | IC50 | - | - | - | <0.0005 µM
CC(O)[C@H](NC(=O)CCCCCCCCCCCCCCC(=O)N[C@@H](CC(N)=O)C(=O)N[C@@H](Cc1ccccc1)C(=O)O)C(=O)N[C@@H](CCc1ccccc1)C(=O)N[C@@H](Cc1ccccc1)C(N)=O | Ki | - | - | - | 0.82 µM
CC(C)C(=O)NCCC(C)(C)CN(C[C@@H](O)[C@H](Cc1ccccc1)NC(=O)O[C@H]1CO[C@H]2OCC[C@H]21)S(=O)(=O)c1ccc2c(c1)OCO2 | Ki | fluorescence | - | - | <0.001 µM
COCCNC(=O)[C@@H](NC(=O)[C@H](Cc1ccc(O)cc1)C[C@H](O)[C@H](Cc1ccccc1)NC(=O)OC(C)(C)C)C(C)C | IC50 | fluorescence | - | - | 0.001 µM
CCC(Cc1cccc(NS(=O)(=O)c2ccc(C(F)(F)F)cn2)c1)c1cc(O)c(C(c2ccccc2)C2CC2)c(=O)o1 | IC50 | fluorescence | - | - | 0.1 µM
COc1ccc(OC(=O)NCCCCC(C)(C)CN(C[C@@H](O)[C@H](Cc2ccccc2)NC(=O)O[C@H]2CO[C@H]3OCC[C@H]32)S(=O)(=O)c2ccc3c(c2)OCO3)cc1 | Ki | fluorescence | - | - | <0.001 µM
CSCC[C@H](NC(=O)CCCCCCCCCCCCCCC(=O)N[C@@H](CC(N)=O)C(=O)N[C@@H](Cc1ccccc1)C(=O)O)C(=O)N[C@@H](CC(C)C)C(=O)N[C@@H](Cc1ccccc1)C(N)=O | IC50 | - | - | - | 1.16 µM
Cc1cc2[nH]c(=O)[nH]c2c(C)c1OCC(=O)N[C@@H](Cc1ccccc1)C[C@H](O)[C@H](Cc1ccccc1)NC(=O)O[C@H]1CO[C@H]2OCC[C@H]21 | IC50 | - | - | - | <0.0005 µM
CC(C)c1ccccc1Sc1c(O)cc(-c2ccc(OCc3cccnc3)cc2)oc1=O | IC50 | HPLC | pH 4.7 | - | 0.068 µM
COC(=O)NCCCCC(C)(C)CN(C[C@@H](O)[C@H](Cc1ccccc1)NC(=O)O[C@H]1CO[C@H]2OCC[C@H]21)S(=O)(=O)c1cccc2c1OCO2 | Ki | fluorescence | - | - | <0.001 µM
COCCNC(=O)[C@@H](NC(=O)[C@H](Cc1cccc(OC)c1)C[C@H](O)[C@H](Cc1ccccc1)NC(=O)OC(C)(C)C)C(C)C | IC50 | fluorescence | - | - | 0.001 µM
CCOC(=O)NCCCCC(C)(C)CN(C[C@@H](O)[C@H](Cc1ccccc1)NC(=O)O[C@H]1CO[C@H]2OCC[C@H]21)S(=O)(=O)c1cccc(N)c1 | Ki | fluorescence | - | - | <0.001 µM
O=C(N[C@H]1c2ccccc2C[C@H]1O)[C@@H](Cc1ccccc1)CS(=O)C[C@H](Cc1ccccc1)C(=O)N[C@H]1c2ccccc2C[C@H]1O | IC50 | - | - | - | >10 µM
CN(C)C(=O)NCC(=O)NCCCC(C)(C)CN(C[C@@H](O)[C@H](Cc1ccccc1)NC(=O)O[C@H]1CO[C@H]2OCC[C@H]21)S(=O)(=O)c1ccc2c(c1)OCO2 | Ki | fluorescence | - | - | <0.001 µM
Cc1cc(C)c(OCC(=O)N[C@@H](Cc2ccccc2)C[C@H](O)[C@H](Cc2ccccc2)NC(=O)O[C@H]2CO[C@H]3OCC[C@H]32)c(C)c1N | IC50 | - | - | - | <0.0005 µM

4 of the rows above, restated:

Cc1cccc(C)c1OCC(=O)N[C@@H](Cc1ccccc1)[C@@H](O)C[C@H](Cc1ccccc1)NC(=O)O[C@H]1CO[C@H]2OCC[C@H]21 ; measure: IC50 ; value: <0.0005 µM
CSCC[C@H](NC(=O)CCCCCCCCCCCCCCC(=O)N[C@@H](CC(N)=O)C(=O)N[C@@H](Cc1ccccc1)C(=O)O)C(=O)N[C@@H](CC(C)C)C(=O)N[C@@H](Cc1ccccc1)C(N)=O ; measure: IC50 ; value: 1.16 µM
CC(C)C(=O)NCCC(C)(C)CN(C[C@@H](O)[C@H](Cc1ccccc1)NC(=O)O[C@H]1CO[C@H]2OCC[C@H]21)S(=O)(=O)c1ccc2c(c1)OCO2 ; measure: Ki ; method: fluorescence ; value: <0.001 µM
O=C(N[C@H]1c2ccccc2C[C@H]1O)[C@@H](Cc1ccccc1)CS(=O)C[C@H](Cc1ccccc1)C(=O)N[C@H]1c2ccccc2C[C@H]1O ; measure: IC50 ; value: >10 µM

Blank or dashed fields: not listed here. ICn is the concentration giving n% inhibition.